Source: ChEMBL document CHEMBL3046613 (J Agric Food Chem, 2010)

Assays:
Tobacco mosaic virus [1] = experiment: Antiviral activity against Tobacco mosaic virus (TMV) inoculated on 100 ug/mL compound smeared Nicotiana tabacum leaves assessed as protective effect against viral infection measured 3 to 4 days post viral infection
Tobacco mosaic virus [2] = experiment: Antiviral activity against Tobacco mosaic virus (TMV) inoculated on fresh tobacco leaves followed by dipping into compound solution at 50 ug/mL for 20 min and measured 72 hr post compound treatment by half-leaf method
Tobacco mosaic virus [3] = experiment: Antiviral activity against Tobacco mosaic virus (TMV) inoculated on fresh tobacco leaves followed by dipping into compound solution for 20 min and measured 72 hr post compound treatment by half-leaf method
Tobacco mosaic virus [4] = experiment: Antiviral activity against Tobacco mosaic virus (TMV) inoculated on fresh tobacco leaves followed by dipping into compound solution at 100 ug/mL for 20 min and measured 72 hr post compound treatment by half-leaf method
Tobacco mosaic virus [5] = experiment: Antiviral activity against Tobacco mosaic virus (TMV) inoculated on fresh tobacco leaves followed by dipping into compound solution at 25 ug/mL for 20 min and measured 72 hr post compound treatment by half-leaf method
Tobacco mosaic virus [6] = experiment: Antiviral activity against Tobacco mosaic virus (TMV) inoculated on whole Nicotiana tabacum leaves followed by smearing with 100 ug/mL compound solution on left side of leaves assessed as viral infection curative effect measured 3 to 4 days post viral infection
Tobacco mosaic virus [7] = experiment: Antiviral activity against Tobacco mosaic virus (TMV) pre-treated with 100 ug/mL compound for 30 min followed by inoculation on left side of Nicotiana tabacum leaves assessed as virus inactivation effect measured 3 to 4 days post viral infection
Tobacco mosaic virus [8] = experiment: Antiviral activity against Tobacco mosaic virus (TMV) inoculated on fresh tobacco leaves followed by dipping into compound solution at 5 ug/mL for 20 min and measured 72 hr post compound treatment by half-leaf method

Structure (SMILES) | Activity (Tobacco mosaic virus [1]) [%] | inhibition (INH) (Tobacco mosaic virus [2]) [%] | EC50 (Tobacco mosaic virus [3]) [µg/mL] | inhibition (INH) (Tobacco mosaic virus [4]) [%] | inhibition (INH) (Tobacco mosaic virus [5]) [%] | Activity (Tobacco mosaic virus [6]) [%] | Activity (Tobacco mosaic virus [7]) [%] | inhibition (INH) (Tobacco mosaic virus [8]) [%]
COc1cc2c3c(c4cc(OC)c(OC)cc4c2cc1OC)CN1CCCC1C3.O=C(O)CC(O)(CC(=O)O)C(=O)O (centres undefined) | 50 | 77.8 | 25.7 | 91.7 | 48.9 | 39.1 | 82.6 | 
COc1cc2c3c(c4cc(OC)c(OC)cc4c2cc1OC)CN1CCC[C@H]1C3 | 47.7 | 35.2 |  | 43.7 | 50.6 | 48.3 | 24.4 | 41.7
Br.COc1cc2c3c(c4cc(OC)c(OC)cc4c2cc1OC)CN1CCCC1C3 (centres undefined) | 66.7 | 52.2 | 16.5 | 78.6 | 47.4 | 44.4 | 56.5 | 42.6
COc1cc2c3c(c4cc(OC)c(OC)cc4c2cc1OC)CN1CCCC1C3.I (centres undefined) | 58.8 | 89.9 | < 5 | 91.6 | 76.8 | 37.8 | 39.1 | 62.1
COc1cc2c3c(c4cc(OC)c(OC)cc4c2cc1OC)CN1CCCC1C3.O=C(O)c1ccccc1O (centres undefined) | 56.8 | 54.6 |  | 59 | 24.3 | 72.4 | 60 | 23.7
CC(O)C(=O)O.COc1cc2c3c(c4cc(OC)c(OC)cc4c2cc1OC)CN1CCCC1C3 (centres undefined) | 37.3 | 87.9 | 10.8 | 96.6 | 62.9 | 38.3 | 91.3 | 32.8
COc1cc2c3c(c4cc(OC)c(OC)cc4c2cc1OC)CN1CCCC1C3.O=C(O)C(O)C(O)C(=O)O (centres undefined) | 54.6 | 64 | 27.5 | 94.4 | 35.7 | 44.8 | 64.4 | 6.7
COc1cc2c3c(c4cc(OC)c(OC)cc4c2cc1OC)CN1CCCC1C3.Cl (centres undefined) | 78.4 | 88.2 | 10 | 92.3 | 75.4 | 34.7 | 60.9 | 30.2
COc1cc2c3c(c4cc(OC)c(OC)cc4c2cc1OC)CN1CCCC1C3 (centres undefined) | 63.3 | 42.5 |  | 57.6 | 41.2 | 43.5 | 73.9 | 34
COc1cc2c3c(c4cc(OC)c(OC)cc4c2cc1OC)CN1CCCC1C3.O=C(O)CC(O)C(=O)O (centres undefined) | 50 | 61.5 | < 25 | 66.7 | 65.7 | 42.1 | 80.4 | 
COc1cc2c3c(c4cc(OC)c(OC)cc4c2cc1OC)CN1CCCC1C3.O=C(O)c1ccccc1 (centres undefined) | 76.5 | 70 | 11.2 | 93.7 | 48 | 44.9 | 69.6 | 44.4
COc1cc2c3c(c4cc(OC)c(OC)cc4c2cc1OC)CN1CCCC1C3.O=[N+]([O-])c1cc([N+](=O)[O-])c(O)c([N+](=O)[O-])c1 (centres undefined) | 45.5 | 36.4 |  | 41.9 | 28.6 | 51.7 | 57.8 | 7.1
COc1cc2c3c(c4cc(OC)c(OC)cc4c2cc1OC)CN1CCC[C@@H]1C3 | 47.7 | 55.2 |  | 62.1 | 5.3 | 55.2 | 62.2 | 0
COc1cc2c3c(c4cc(OC)c(OC)cc4c2cc1OC)CN1CCCC1C3.O=C(O)CCC(=O)O (centres undefined) | 25 | 51.9 |  | 59.3 | 17.1 | 44.8 | 71.1 | 11.1
